Laboratory results from paper PMC11915811, “Conformational activation and disulfide exchange in HIV-1 Env induce cell-free lytic/fusogenic transformation and enhance infection” (Journal of Virology, 2025).

Test system: JRFL pseudovirus
Test: Cell-free lysis of JRFL pseudovirus, p24 release detected by ELISA
Conditions: read-out: EC50 for lysis of JRFL pseudovirus by 1,000 nM entry inhibitor + dilutions of Trx1; entry inhibitor fixed at 1,000 nM, Trx1 serially diluted 1/2 from 1,000 nM (EC50 on Trx1 concentration); 2 h at 37°C; mean of three independent experiments ± SD

B1: Trx1: recombinant human thioredoxin-1, purchased from Cayman Chemical (protein)
chain: MVKQIESKTAFQEALDAAGDKLVVVDFSATWCGPCKMIKPFFHSLSEKYSNVIFLEVDVDDCQDVASECEVKCMPTFQFFKKGQKVGEFSGANKEKLEATINELV
- EC50: > 1 µM
